A mixed list of measured activities; the numbers were collected in NIAID ChemDB.

Shared fields: target-level tests; agent: HIV-1; protein: Reverse transcriptase

ICn is the concentration giving n% inhibition.

smiles,strain,endpoint,mutations,method,result
Nc1ncnc2c1ncn2[C@H]1CC[C@@H](COP(=O)(O)OP(=O)(O)OP(=O)(O)O)O1,-,IC50,RT-F77L,nucleotide incorporation / radiometric,4.5 µM
CCN1c2ncc(CCOc3ccc4on(C(C)(C)C)c(=O)c4c3)cc2C(=O)Nc2c(C)cc(F)nc21,IIIB,IC50,-,nucleotide incorporation / radiometric,0.05–0.1 µM
CCNC(=O)N1CCc2c(OCCc3cnc4c(c3)C(=O)N(C)c3cccnc3N4CC)ccc(C(=O)O)c2C1,WT,IC50,-,nucleotide incorporation / radiometric,<0.1 µM
CCN1c2ncccc2C(=O)N(C)c2ccc(-c3ccc[nH]3)nc21,-,IC50,RT-Y181C,nucleotide incorporation / radiometric,<1 µM
CC(C)(C)c1ccc(-n2nnnc2SCC(=O)Nc2ccc(C(=O)Nc3ccc(/C=C/C(=O)O)cc3)cc2Cl)c(Cl)c1,WT,IC50,-,PicoGreen / fluorescence,<1 µM
COC(=O)NCCCCNc1nc(Cc2ccccc2)c(C)c(=O)[nH]1,-,Ki,-,-,23 µM
CC(C)(C)c1ccc(-n2nnnc2SCC(=O)Nc2ccc(OCC(=O)NC(CO)C(=O)O)cc2Cl)c(Cl)c1,WT,IC50,-,PicoGreen / fluorescence,<1 µM
CCN1c2ncc(CCc3cc[n+]([O-])cc3)cc2C(=O)N(C)c2ccc(F)nc21,WT,IC50,-,nucleotide incorporation / radiometric,<1 µM
Cc1cc(C(=O)O)ccc1NC(=O)CSc1nnc(C(F)F)n1-c1ccc(C)c2c1CCCC2,-,IC50,RT-Y188L,nucleotide incorporation / radiometric,>0.1 µM
CC(C)(C)c1ccc(-n2nnnc2SCC(=O)Nc2ccc(NC(=O)Cc3cccc[n+]3[O-])cc2Cl)c(Cl)c1,WT,IC50,-,PicoGreen / fluorescence,<1 µM
CCN1c2ncccc2C(=O)N(C)c2ccc(-c3cc[nH]c3C(C)=O)nc21,WT,IC50,-,nucleotide incorporation / radiometric,<1 µM
CCN1c2ncc(CCOc3ccc4cc(CC(=O)O)ccc4c3)cc2C(=O)N(C)c2cccnc21,-,IC50,RT-Y188L,nucleotide incorporation / radiometric,>1 µM
CCN1c2ncc(CCOc3cccc4c3n(C)c(=O)n4C)cc2C(=O)N(C)c2cccnc21,IIIB,IC50,RT-K103N Y181C,nucleotide incorporation / radiometric,>0.1 µM
CCc1ccc(-n2c(Br)nnc2SCC(=O)Nc2ccc(C(=O)O)cc2C)c2ccccc12,-,IC50,-,nucleotide incorporation / radiometric,<0.05 µM
CCN1c2ncc(CCOc3ccc(C(=O)O)c4c3CCN(C(=O)OC(C)(C)C)C4)cc2C(=O)N(C)c2cccnc21,-,IC50,RT-V106A,nucleotide incorporation / radiometric,>1 µM
CCN1c2ncccc2C(=O)N(C)c2ccc(-c3cnn(C)c3)nc21,-,IC50,RT-Y181C,nucleotide incorporation / radiometric,>1 µM
Cc1nnc(SCC(=O)Nc2ccc(OCC(=O)N3CCC(C(=O)O)CC3)cc2Cl)n1-c1ccc(C2CC2)cc1Cl,-,IC50,RT-K103 Y181C,PicoGreen / fluorescence,<1 µM
COC(=O)[C@@H](NC(=O)c1ccc(NC(=O)CSc2nnc(Br)n2-c2ccc(C3CC3)c3ccccc23)c(Cl)c1)C(C)C,-,IC50,RT-Y181C,nucleotide incorporation / radiometric,<0.05 µM
Cc1cc(S(N)(=O)=O)ccc1NC(=O)COc1ccccc1C(=O)c1cc(Cl)cc(C#N)c1,WT,IC50,-,fluorescence,0.0066 µM
Cc1cc(C)cc(S(=O)(=O)c2c(C(N)=O)[nH]c3ccc(Cl)c(F)c23)c1,-,Ki,Y181C,RT activity / nucleotide incorporation,8.4 µM
CCOC(=O)CNC(=O)c1ccc(NC(=O)CSc2nnc(Br)n2-c2ccc(C3CC3)c3ccccc23)c(Cl)c1,-,IC50,-,nucleotide incorporation / radiometric,<0.05 µM
CCN1c2ncc(CCOc3cccc4c3CN(O)C4=O)cc2C(=O)N(C)c2cccnc21,IIIB,IC50,-,nucleotide incorporation / radiometric,0.05–0.1 µM
CCOC(=O)[C@H](Cc1ccc(O)cc1)NC(=O)c1ccc(NC(=O)CSc2nnc(Br)n2-c2ccc(C3CC3)c3ccccc23)c(Cl)c1,-,IC50,RT-Y188L,nucleotide incorporation / radiometric,0.05–0.1 µM
CCN1c2ncccc2C(=O)N(C)c2ccc(-c3ccn[nH]3)nc21,-,IC50,RT-Y181C,nucleotide incorporation / radiometric,<1 µM
O=C(CSc1nnnn1-c1ccc(C2CC2)cc1Cl)Nc1ccc(C#CC2(CNCCN3CCCC3)CC2)cc1Cl,WT,IC50,-,PicoGreen / fluorescence,<1 µM
NCCCCNc1nc(Cc2ccccc2)cc(=O)[nH]1,-,Ki,RT-V106A,-,>1000 µM
CCN1c2ncc(CCOc3cccc4c3C(C)C(=O)N4C)cc2C(=O)N(C)c2cccnc21,IIIB,IC50,-,nucleotide incorporation / radiometric,0.05–0.1 µM
CC(C)(C#Cc1ccc(NC(=O)CSc2nnnn2-c2ccc(C3CC3)cc2Cl)c(Cl)c1)NC(=O)CNc1ccncc1,WT,IC50,-,PicoGreen / fluorescence,<1 µM
CC(C)c1nnc2c3ccccc3c(N3CCc4ccccc4C3)nn12,KER2008,IC50,-,RT activity / fluorescence,8.55 µM
COP(=O)(c1cc(C)cc(CCC#N)c1)c1c(C(N)=O)[nH]c2ccc(Cl)c(F)c12,-,IC50,Y181C,RT activity,0.526 µM
Nc1ccn([C@H]2CC[C@@H](COP(=O)(O)OP(=O)(O)OP(=O)(O)O)O2)c(=O)n1,-,IC50,RT-Q151M,nucleotide incorporation / radiometric,2.3 µM
Cc1cc(C)cc(S(=O)(=O)c2c(C(=O)NCCOc3ccccc3)[nH]c3ccc(Cl)c(F)c23)c1,-,Ki,L100I,RT activity / nucleotide incorporation,0.002 µM
Cc1cc(C#CC(C)(C)C(=O)O)ccc1NC(=O)CSc1nnnn1-c1ccc(C(C)(C)C)cc1Cl,WT,IC50,-,PicoGreen / fluorescence,<1 µM
CCN1c2ncc(CCc3cccc(NC(N)=O)c3)cc2C(=O)N(C)c2ccc(Cl)nc21,WT,IC50,-,nucleotide incorporation / radiometric,<1 µM
CN(C)C(=O)COC(C)(C)C#Cc1ccc(NC(=O)CSc2nnnn2-c2ccc(C(C)(C)C)cc2Cl)c(Cl)c1,-,IC50,RT-K103 Y181C,PicoGreen / fluorescence,<1 µM
CN1C(=O)c2cccnc2N(C2CC2)c2nc(-c3cc[nH]c3)ccc21,WT,IC50,-,nucleotide incorporation / radiometric,<1 µM
CCN1c2ncc(CCOc3ccc(C(=O)O)c4c3CCN(S(=O)(=O)N(C)C)C4)cc2C(=O)N(C)c2cccnc21,-,IC50,RT-V106A,nucleotide incorporation / radiometric,0.1–1 µM
C=Cc1cc(N(CCC)CCC)nc(S(C)(=O)=O)n1,-,Ki,RT-K103N,nucleotide incorporation / radiometric,>400 µM
CC(C)(C#Cc1ccc(NC(=O)CSc2nnnn2-c2ccc(C(C)(C)C)cc2Cl)c(Cl)c1)OCC(=O)NCCO,WT,IC50,-,PicoGreen / fluorescence,<1 µM
CCc1cc(NCc2nc3c(C)ccc(C)c3o2)c(=O)[nH]c1C,-,IC50,RT-K103N,nucleotide incorporation,0.8319 µM
O=C(CSc1nnnn1-c1ccc(C2CC2)cc1Cl)Nc1ccc(-c2ccc(OCCN3CCCCC3)cc2)cc1Cl,WT,IC50,-,PicoGreen / fluorescence,<1 µM
Cc1c(Cc2ccccc2)nc(NCCCCN)[nH]c1=O,-,Ki,RT-Y181L,-,>1000 µM
CCN1c2ncc(CCc3cccc4[nH]ccc34)cc2C(=O)N(C)c2cccnc21,WT,IC50,-,nucleotide incorporation / radiometric,<1 µM
Cc1cc(Cl)c(-n2nnnc2SCC(=O)Nc2ccc(C#CC(C)(C)C(=O)O)cc2Cl)cc1C(F)(F)F,-,IC50,RT-K103 Y181C,PicoGreen / fluorescence,<1 µM
CCN1c2ncc(CCOc3ccc(C(=O)O)c4ccccc34)cc2C(=O)Nc2c(C)cc(F)nc21,WT,IC50,-,nucleotide incorporation / radiometric,<0.1 µM
CCN1c2ncc(C3(c4ccccc4)CO3)cc2C(=O)N(C)c2ccc(Cl)nc21,WT,IC50,-,nucleotide incorporation / radiometric,<1 µM
CC(C)(C)c1ccc(-n2nnnc2SCC(=O)Nc2ccc(S(=O)(=O)NCCc3ccccc3)cc2Cl)c(Cl)c1,WT,IC50,-,PicoGreen / fluorescence,<1 µM
C=Cc1cc(N(C)C)nc(S(C)(=O)=O)n1,-,Ki,RT-V179D,nucleotide incorporation / radiometric,0.015 µM
CCN1c2ncc(CCOc3ccc4c(c3)COC(=O)N4)cc2C(=O)N(C)c2cccnc21,IIIB,IC50,RT-K103N Y181C,nucleotide incorporation / radiometric,>0.1 µM
CC(C)(C#Cc1ccc(NC(=O)CSc2nnnn2-c2ccc(C3CC3)cc2Cl)c(Cl)c1)OCCN1CCCCC1,WT,IC50,-,PicoGreen / fluorescence,<1 µM
CCN1c2ncccc2C(=O)N(C)c2ccc(-c3cccn3C(C)=O)nc21,-,IC50,RT-Y181C,nucleotide incorporation / radiometric,<1 µM
Fc1ccc2c(c1)CN(c1nn3c(C4CC4)nnc3c3ccccc13)CC2,IIIB,IC50,-,RT activity / fluorescence,0.12 µM
CC(C)(C)c1ccc(-n2nnnc2SCC(=O)Nc2ccc(-c3ccc(OCCN4CCCCC4)cc3)cc2Cl)c(Cl)c1,-,IC50,RT-K103 Y181C,PicoGreen / fluorescence,<1 µM
COc1ccc2c(c1)CCN(c1nn3c(C)nnc3c3ccccc13)C2,98US_MSC5016,IC90,-,RT activity / fluorescence,6.23 µM
CCN1c2ncc(CCOc3cccc4c3COC(=O)N4)cc2C(=O)Nc2c(C)ccnc21,IIIB,IC50,RT-K103N Y181C,nucleotide incorporation / radiometric,>0.1 µM
CC(C(=O)O)C(=O)NC(C)(C)C#Cc1ccc(NC(=O)CSc2nnnn2-c2ccc(C3CC3)cc2Cl)c(Cl)c1,-,IC50,RT-K103 Y181C,PicoGreen / fluorescence,<1 µM
CC(C)c1nnc2c3ccccc3c(N3CCc4ccc(N)cc4C3)nn12,KER2008,IC50,-,RT activity / fluorescence,0.23 µM
CC(C)(C)c1ccc(-n2nnnc2SCC(=O)Nc2ccc(C(=O)NN3CCOCC3)cc2Cl)c(Cl)c1,WT,IC50,-,PicoGreen / fluorescence,<1 µM
CCc1ccc(-n2c(Br)nnc2SCC(=O)Nc2ccc(C(=O)O)cc2Br)c2ccccc12,-,IC50,-,nucleotide incorporation / radiometric,<0.05 µM
O=C(CSc1nnnn1-c1ccc(C2CC2)cc1Cl)Nc1ccc(C(=O)NCCc2cc[n+]([O-])cc2)cc1Cl,WT,IC50,-,PicoGreen / fluorescence,<1 µM
CCN1c2ncc(CCOc3cccc4c3ccc[n+]4[O-])cc2C(=O)N(C)c2ccc(Cl)nc21,-,IC50,RT-K103N P225H,nucleotide incorporation / radiometric,0.017 µM
CN(C)CCCC(=O)NC(C)(C)C#Cc1ccc(NC(=O)CSc2nnnn2-c2ccc(C3CC3)cc2Cl)c(Cl)c1F,-,IC50,RT-K103 Y181C,PicoGreen / fluorescence,<1 µM
CCN1c2ncc(CCOc3cccc4c3CNC4=O)cc2C(=O)N(C)c2cccnc21,IIIB,IC50,RT-K103N Y181C,nucleotide incorporation / radiometric,>0.1 µM
CN1CCN(C(=O)c2ccc(NC(=O)CSc3nnnn3-c3ccc(C(C)(C)C)cc3Cl)c(Cl)c2)CC1,WT,IC50,-,PicoGreen / fluorescence,<1 µM
CCN1c2ncc(CCOc3ccc(CC(=O)O)c4c3CCCC4)cc2C(=O)N(C)c2cccnc21,-,IC50,RT-K103N Y181C,nucleotide incorporation / radiometric,0.1–1 µM
CC(C)(C#Cc1ccc(NC(=O)CSc2nnnn2-c2ccc(C3CC3)cc2Cl)c(Cl)c1)NC(=O)Cn1cncn1,-,IC50,RT-K103 Y181C,PicoGreen / fluorescence,<1 µM
COc1ccc2cccc(-n3c(Br)nnc3SCC(=O)Nc3ccc(C(=O)O)cc3Cl)c2c1,-,IC50,RT-Y188L,nucleotide incorporation / radiometric,>0.1 µM
CCN1c2ncccc2C(=O)N(C)c2ccc(-c3cn[nH]c3)nc21,-,IC50,RT-Y188L,nucleotide incorporation / radiometric,<1 µM

Lines come from different laboratories, so protocols vary. Blank or dashed fields: not listed here. Two numbers with a dash give a range or band.